Laboratory results taken from patent US20240228596A1 (VIB VZW, published 2024).

B1: pX-B001_GS-VHH72-h1-E1D-S56A_(G4S)6_VHH72-h1-E1D-S56A_His8 (VHH)
chain: DVQLVESGGGLVQPGGSLRLSCAASGRTFSEYAMGWFRQAPGKEREFVATISWSGGATYYTDSVKGRFTISRDNAKNTVYLQMNSLRPEDTAVYYCAAAGLGTVVSEWDYDYDYWGQGTLVTVSSGGGGSGGGGSGGGGSGGGGSGGGGSGGGGSDVQLVESGGGLVQPGGSLRLSCAASGRTFSEYAMGWFRQAPGKEREFVATISWSGGATYYTDSVKGRFTISRDNAKNTVYLQMNSLRPEDTAVYYCAAAGLGTVVSEWDYDYDYWGQGTLVTVSS
B2: pX-B002_GS-VHH72-h1-E1D-S56A_(G4S)_VHH72-h1-E1D-S56A_His8 (VHH)
chain: DVQLVESGGGLVQPGGSLRLSCAASGRTFSEYAMGWFRQAPGKEREFVATISWSGGATYYTDSVKGRFTISRDNAKNTVYLQMNSLRPEDTAVYYCAAAGLGTVVSEWDYDYDYWGQGTLVTVSSGGGGSDVQLVESGGGLVQPGGSLRLSCAASGRTFSEYAMGWFRQAPGKEREFVATISWSGGATYYTDSVKGRFTISRDNAKNTVYLQMNSLRPEDTAVYYCAAAGLGTVVSEWDYDYDYWGQGTLVTVSS
B3: pX-B003_GS-VHH72-h1-E1D-S56A_(G4S)4_VHH72-h1-E1D-S56A_His8 (VHH)
chain: DVQLVESGGGLVQPGGSLRLSCAASGRTFSEYAMGWFRQAPGKEREFVATISWSGGATYYTDSVKGRFTISRDNAKNTVYLQMNSLRPEDTAVYYCAAAGLGTVVSEWDYDYDYWGQGTLVTVSSGGGGSGGGGSGGGGSGGGGSDVQLVESGGGLVQPGGSLRLSCAASGRTFSEYAMGWFRQAPGKEREFVATISWSGGATYYTDSVKGRFTISRDNAKNTVYLQMNSLRPEDTAVYYCAAAGLGTVVSEWDYDYDYWGQGTLVTVSS
B4: pX-B007_GS-VHH3-117-hc_(G4S)6_VHH3-83-hc_His8 (bispecific antibody)
chain: DVQLVESGGGLVQPGGSLRLSCAASGKAVSISDMGWYRQPPGKQRELVATITKTGSTNYADSAQGRFTISRDNTKSAVYLEMKSLRPEDTAVYYCNAWLPYGMGPDYYGMELWGKGTLVTVSSGGGGSGGGGSGGGGSGGGGSGGGGSGGGGSDVQLQESGGGLVQPGDSLRLSCVLSGGVFTSYAMGWFRQAPGKEREFLAAITFNSDATYYADSVKGRFTISRDNAKNTAYLQMNSLRPNDTAVYSCAAGGNHYNPQYYHDYDKYDHWGQGTLVTVSS
B5: pX-B008_GS-VHH3-117-hc_(G4S)6_VHH3-83-hc-N85E_His8 (bispecific antibody)
chain: DVQLVESGGGLVQPGGSLRLSCAASGKAVSISDMGWYRQPPGKQRELVATITKTGSTNYADSAQGRFTISRDNTKSAVYLEMKSLRPEDTAVYYCNAWLPYGMGPDYYGMELWGKGTLVTVSSGGGGSGGGGSGGGGSGGGGSGGGGSGGGGSDVQLQESGGGLVQPGDSLRLSCVLSGGVFTSYAMGWFRQAPGKEREFLAAITFNSDATYYADSVKGRFTISRDNAKNTAYLQMNSLRPEDTAVYSCAAGGNHYNPQYYHDYDKYDHWGQGTLVTVSS
B6: pX-B011_GS-VHH3-117-hc_(G4S)_VHH3-83-hc-N85E_His8 (bispecific antibody)
chain: DVQLVESGGGLVQPGGSLRLSCAASGKAVSISDMGWYRQPPGKQRELVATITKTGSTNYADSAQGRFTISRDNTKSAVYLEMKSLRPEDTAVYYCNAWLPYGMGPDYYGMELWGKGTLVTVSSGGGGSDVQLQESGGGLVQPGDSLRLSCVLSGGVFTSYAMGWFRQAPGKEREFLAAITFNSDATYYADSVKGRFTISRDNAKNTAYLQMNSLRPEDTAVYSCAAGGNHYNPQYYHDYDKYDHWGQGTLVTVSS
B7: VHH3.117 (VHH)
VHH: QVQLQESGGGLVQPGGSLRLSCAASGKAVSISDMGWYRQPPGKQRELVATITKTGSTNYADSAQGRFTISRDNTKSAVYLEMKSLKPEDTAVYYCNAWLPYGMGPDYYGMELWGKGTQVTVSS
B8: VHH3.83 (VHH)
VHH: QVQLQESGGGLVQPGDSLRLSCVLSGGVFTSYAMGWFRQAPGKEREFLAAITFNSDATYYADSVKGRFTISRDNAKNTAYLQMNSLKPNDTAVYSCAAGGNHYNPQYYHDYDKYDHWGQGTQVTVSS
B9: KiH19 = VHH117/VHH83-10GS-KiH (bispecific antibody, V domains shown)
V domain 1: DVQLQESGGGLVQPGGSLRLSCAASGKAVSISDMGWYRQPPGKQRELVATITKTGSTNYADSAQGRFTISRDNTKSAVYLEMKSLKPEDTAVYYCNAWLPYGMGPDYYGMELWGKGTQVTVSS
V domain 2: DVQLQESGGGLVQPGDSLRLSCVLSGGVFTSYAMGWFRQAPGKEREFLAAITFNSDATYYADSVKGRFTISRDNAKNTAYLQMNSLKPEDTAVYSCAAGGNHYNPQYYHDYDKYDHWGQGTQVTVSS
B10: KIH10 = VHH72_5mut/VHH89Hum-KiH (bispecific antibody, V domains shown)
V domain 1: DVQLVESGGGLVQPGGSLRLSCAASGLTFSDIAMGWFRQAPGKEREFVATISWSGGGTYYTDSVKGRFTISRDNAKNTVYLQMNSLRPEDTAVYYCAAAGAGTVVSEWDYDYDYWGQGTLVTVSS
V domain 2: DVQLVESGGGLVQPGGSLRLSCAASGFTLDYYAIGWFRQAPGKEREGLSRIDSSDGSTYYADSVKGRFTISRDNAKNIVYLQMNSLKPEDTAVYYCATDPIIQGRNWYWTGWGQGTLVTVSS

Columns and labels:
Test in all cases: cell-based or functional assay
[1] = target: SARS-COV-2 Wuhan WT Spike_del18 on VSV-delG pseudotyped particles (SARS-COV-2, UniProt P0DTC2 14-1255)
[2] = target: SARS-COV-2 Omicron BA.2 Spike_del18 on VSV pseudotyped particles (SARS-COV-2 Omicron BA.2, UniProt P0DTC2 14-1255)
[3] = target: SARS-COV-2 S375F variant spike protein on VSV pseudotyped particles

Row | Binder | EC50 nM, pseudoneutralization assay [1] [nM] | other results
1 | B1 | 5.54 | –
2 | B2 | 3.74 | –
3 | B3 | 12.1 | –
4 | B4 | 10.2 | IC50 ug/ml, pseudoneutralization assay [1]: 0.312 µg/mL
5 | B5 | 6.42 | –
6 | B6 | 21 | –
7 | B7 | 36.7 | –
8 | B8 | 16.2 | –
9 | B9 | – | loss of neutralizing activity for Omicron BA.2 against WT pseudotyped VSV [2]: 2.4 fold
10 | B10 | – | IC50, neutralization of pseudotyped VSV particles [3]: ~1.6 µg/mL
